Data from PMC2837848.

Tests used:
Assay in all cases: purified protein
O=C(O)c1cccnc1C(=O)O = conditions: co-substrate PRPP
O=C(O)c1cccnc1 = conditions: co-substrate PRPP
[1] = system: O=P(O)(O)OC[C@H]1O[C@H](OP(=O)(O)OP(=O)(O)O)[C@H](O)[C@@H]1O; conditions: co-substrate QA

Substance	Km (O=C(O)c1cccnc1C(=O)O) [µM]	kcat (O=C(O)c1cccnc1C(=O)O) [s⁻¹]	kcat/Km (O=C(O)c1cccnc1C(=O)O) [M⁻¹ s⁻¹]	Km (O=C(O)c1cccnc1) [µM]	kcat (O=C(O)c1cccnc1) [s⁻¹]	kcat/Km (O=C(O)c1cccnc1) [M⁻¹ s⁻¹]	Km [1] [µM]	kcat [1] [s⁻¹]	kcat/Km [1] [M⁻¹ s⁻¹]
QAPRTase (Salmonella typhimurium quinolinic acid phosphoribosyltransferase) (Salmonella enterica subsp. enterica serovar Typhimurium str. LT2; K186A)	1478 ± 441	0.0016	1.1	151 ± 13	0.048	320	2181 ± 500	0.0016	0.73
QAPRTase (Salmonella typhimurium quinolinic acid phosphoribosyltransferase) (Salmonella enterica subsp. enterica serovar Typhimurium str. LT2; R119A)	136 ± 20	0.00024	1.5	–	–	–	3138 ± 800	0.00024	0.064
